PubChem BioAssay AID624416 (The Scripps Research Institute Molecular Screening Center, 2012)
The entries are a selection whose mix differs from that of the whole data set. The source made the active and inactive calls. Cut-off read from the data, not from the text of the source: active = inhibition above about 8.5%; inactive = the rest.

System: HIV-1 gp120 / PG9 antibody interaction
Experiment: small molecules engaging PG9 antibody – biochemical, TR-FRET, primary screen (AID 624416)
Details: TR-FRET gp120-PG9 antibody binding; at 6.7 µM; hits give high values

SMILES | inhibition
CC(=O)Nc1ccc([As](=O)(O)O)cc1 | inactive: -1.2%
